Measured values from several laboratories, pooled; numbers as filed in NIAID ChemDB.

All rows: tests in culture; agent: HIV-1; cells: MT-4; endpoint: EC50

ECn is the concentration giving n% inhibition of infection, replication or growth.

compound,strain,changes,method,value
C=CCOCn1c(C(=C)c2ccccc2)c(CC)c(=O)[nH]c1=O,IIIB,,cytopathic effect / MTT,0.87 µM
CCc1c(Cc2ccc(OC)c(OC)c2)n(COCC2CC2)c(=O)[nH]c1=O,A17,K103N/Y181C,MTT,>100 µM
C=CCCc1cccc(Cc2c(CC)c(=O)[nH]c(=O)n2COCC)c1,RT-K103N Y181C Mutant NNRTI-resistant,,cytopathic effect / MTT,10 µM
Fc1cccc(F)c1CCNC(=S)Nc1ccc(Br)c(Br)n1,IIIB,,cytopathic effect / MTT,0.0028 µg/mL
C=CCOCn1c(C(=C)c2cc(C)cc(C)c2)c(CC)c(=O)[nH]c1=O,IIIB,RT-K103N Y181C,cytopathic effect / MTT,>100 µM
CC(C)CN(C[C@@H](O)[C@H](Cc1ccccc1)NC(=O)O[C@H]1CO[C@H]2OCC[C@H]21)S(=O)(=O)c1ccc2nc(N(C)CCCN(C)C)sc2c1,R13080,,cytopathic effect / MTT,0.955 µM
CCc1c(Cc2ccccc2)n(COCCc2ccccc2)c(=O)[nH]c1=O,EFVR,K103R/V179D/P225H,MTT,>43 µM
COc1c(-c2cc(C)on2)c(O)c(S(=O)(=O)Oc2ccc([N+](=O)[O-])cc2)c2occc12,IIIB,,MTT,0.000031 µM
CC(C)CN(C[C@@H](O)[C@H](Cc1ccccc1)NC(=O)OCc1cncs1)S(=O)(=O)c1ccc2nc(NC(=O)CN3CCN(C)CC3)sc2c1,IIIB,,cytopathic effect / MTT,0.0079 µM
Fc1cccc(F)c1CCNC(=S)Nc1ccccn1,IIIB,,cytopathic effect / MTT,0.03 µg/mL
C=C(c1cc(C)cc(C)c1)c1c(CC)c(=O)[nH]c(=O)n1COCC#Cc1ccccc1,IIIB,,cytopathic effect / MTT,0.29 µM
CC(C)CN(C[C@@H](O)[C@H](Cc1ccccc1)NC(=O)OC1COC2OCCC12)S(=O)(=O)c1ccc2nc(N)sc2c1,LAI,,cytopathic effect / MTT,0.005 µM
Fc1cccc(F)c1CCNC(=S)Nc1ncccn1,IIIB,,cytopathic effect / MTT,0.32 µg/mL
CC(C)CN(C[C@@H](O)[C@H](Cc1ccccc1)NC(=O)O[C@H]1CCOC1)S(=O)(=O)c1ccc2nc(NC(=O)CN3CCN(C)CC3)sc2c1,LAI,,cytopathic effect / MTT,<0.05 µM
CCOCn1c(Cc2ccc(OC)c(OC)c2)c(CC)c(=O)[nH]c1=O,IIIB,,MTT,59 µM
Fc1cccc(F)c1CCNC(=S)Nc1ccc(Cl)cn1,IIIB,,cytopathic effect / MTT,0.0006 µg/mL
Cc1c(O)cccc1C(=O)N[C@@H](Cc1ccccc1)[C@H](O)CN(CC(C)C)S(=O)(=O)c1ccc2nc(N)sc2c1,LAI,,cytopathic effect / MTT,0.005 µM
CCc1c(Cc2ccc(C)cc2)n(COCC2CC2)c(=O)[nH]c1=O,IIIB,,MTT,37 µM
C=CCOc1cccc(Cc2nc(N(C)C)[nH]c(=O)c2CC)c1,RT-K103N Y181C Mutant NNRTI-resistant,,cytopathic effect / MTT,>20 µM
Cc1cc(S(N)(=O)=O)ccc1NC(=O)COc1ccc(Cl)cc1C(=O)c1cc(F)cc(C(F)(F)F)c1,IIIB,,,0.0005 µM
CCc1c(Cc2cc(C)cc(C)c2)n(COCCCc2ccccc2)c(=O)[nH]c1=O,EFVR,K103R/V179D/P225H,MTT,>43 µM
C=CCCc1cccc(Cc2c(CC)c(=O)[nH]c(=O)n2COCC=C)c1,IIIB,,cytopathic effect / MTT,0.2 µM
CC(C)CN(C[C@@H](O)[C@H](Cc1ccccc1)NC(=O)O[C@H]1CO[C@H]2OCC[C@H]21)S(=O)(=O)c1ccc2nc(NC(=O)c3ccccn3)sc2c1,R13025,,cytopathic effect / MTT,0.0076 µM
COc1c2ccoc2c(S(=O)(=O)Oc2ccc(F)cc2)c2oc(C)cc(=O)c12,IIIB,,MTT,0.000055 µM
C=CCOc1cccc(Cc2nc(SCC(C)C)nc(OCC(C)C)c2CC)c1,RT-K103N Y181C Mutant NNRTI-resistant,,cytopathic effect / MTT,>100 µM
CC(C)CN(C[C@@H](O)[C@H](Cc1ccccc1)NC(=O)O[C@H]1CCOC1)S(=O)(=O)c1ccc2nc(NCCN(C)C)sc2c1,IIIB,,cytopathic effect / MTT,0.0095 µM
COP(=O)(c1cc(C)cc(CCC#N)c1)c1c(C(N)=O)[nH]c2ccc(Cl)cc12,BH10,K103N,cytopathic effect,0.0001 µM
Cc1cccc(C)c1OCC(=O)N[C@@H](Cc1ccccc1)[C@H](O)CN(CC(C)C)S(=O)(=O)c1ccc2nc(N)sc2c1,LAI,,cytopathic effect / MTT,0.007 µM
N#Cc1cc(Cl)cc(Oc2c(Br)ccc(CC(=O)Nc3ccc(S(N)(=O)=O)cc3Cl)c2F)c1,,K103N,,0.0022 µM
CC(C)CN(C[C@@H](O)[C@H](Cc1ccccc1)NC(=O)OCc1cncs1)S(=O)(=O)c1ccc2nc(N(C)C(=O)CN3CCOCC3)sc2c1,R13025,,cytopathic effect / MTT,0.1318 µM
CCOCn1c(Cc2cccc(CCC3CO3)c2)c(CC)c(=O)[nH]c1=O,IIIB,,cytopathic effect / MTT,9 µM
COc1c(C(=O)/C=C(/C)Nc2ccccc2)c(O)c(S(=O)(=O)OC2CCCCC2)c2occc12,IIIB,,MTT,0.000047 µM
C=CCOc1cccc(Cc2[nH]c(=S)[nH]c(=O)c2CC)c1,RT-K103N Y181C Mutant NNRTI-resistant,,cytopathic effect / MTT,>20 µM
C=C(c1cccc2ccccc12)c1c(CC)c(=O)[nH]c(=O)n1COCC,IIIB,,cytopathic effect / MTT,4 µM
CC(C)CN(C[C@@H](O)[C@H](Cc1ccccc1)NC(=O)O[C@H]1CCOC1)S(=O)(=O)c1ccc2nc(N)sc2c1,LAI,,cytopathic effect / MTT,0.003 µM
COc1c(C(=O)/C=C(/C)Nc2ccc(Cl)cc2)c(O)c(S(=O)(=O)OC2CCCCC2)c2occc12,IIIB,,MTT,0.000044 µM
CNc1nc2ccc(S(=O)(=O)N(CC(C)C)C[C@@H](O)[C@H](Cc3ccccc3)NC(=O)OCc3cnco3)cc2s1,LAI,,cytopathic effect / MTT,0.003 µM
C=CCCc1cccc(Cc2[nH]c(=O)[nH]c(=O)c2CC)c1,RT-K103N Y181C Mutant NNRTI-resistant,,cytopathic effect / MTT,>66 µM
COc1c(-c2cc(C)on2)c(O)c(S(=O)(=O)Oc2ccc(F)cc2)c2occc12,IIIB,,MTT,0.000031 µM
Fc1cccc(F)c1CCNC(=S)Nc1ncc(Br)cn1,IIIB,,cytopathic effect / MTT,0.053 µg/mL
CCOCn1c(Cc2ccccc2)c(C(C)C)c(=O)[nH]c1=O,RT-K103N Y181C Mutant NNRTI-resistant,,cytopathic effect / MTT,>100 µM

For reference, 2 entries again:

{"compound": "CC(C)CN(C[C@@H](O)[C@H](Cc1ccccc1)NC(=O)OC1COC2OCCC12)S(=O)(=O)c1ccc2nc(N)sc2c1", "strain": "LAI", "method": "cytopathic effect / MTT", "value": "0.005 µM"}
{"compound": "C=CCOCn1c(C(=C)c2ccccc2)c(CC)c(=O)[nH]c1=O", "strain": "IIIB", "method": "cytopathic effect / MTT", "value": "0.87 µM"}

Lines come from different laboratories, so protocols vary. Blank or dashed fields: not listed here.